Results of unrelated studies side by side (data: NIAID ChemDB).

Common to all: cytotoxicity tests; cell line: HepG2.2.15; read-out: CC50

CCn: concentration that lowers growth or viability of the cells by n%. An empty or dashed field is not shown. Lines come from different laboratories, so protocols vary.

compound	method	result
COC(=O)C1=C(CN2CC(F)(F)[C@@H]3[C@H]2CON3C[C@](C)(O)C(C)(C)C(=O)O)NC(c2nccs2)=N[C@H]1c1ccc(F)c(F)c1C	WST / absorbance	>6.25 µM
CCOC(=O)c1c(CSc2ccc(C)cc2)nc2c(O)c(CN(C)C)c(Br)cn12	MTT	65.5 µM
C=C(C)[C@H](OC(=O)COCC)[C@H](C[C@@H](C)C1=C2C[C@H](OC(=O)COCC)[C@H]3[C@@]4(C)CCC(=O)C(C)(C)[C@@H]4CC[C@]3(C)[C@@]2(C)CC1)OC(=O)COCC		>1200 µM
ClCCc1c(Cl)nc2ccc(Cl)cc2c1-c1ccccc1Cl		>1400 µM
CCOC(=O)C1=C(CN2CC(F)(F)[C@H]3[C@@H]2CCN3CC[C@@](C)(O)C(=O)O)NC(c2nccs2)=N[C@H]1c1ccc(F)c(F)c1C	WST / absorbance	67.9 µM
CC(=O)OC(C)(C)CCC(=O)[C@](C)(O)C1[C@H](O)C[C@@]2(C)[C@@H]3C[C@H]4O[C@@]45[C@@H](C[C@H](O)[C@@H](O)C5(C)C)[C@]3(C)C(=O)C[C@]12C		>1745 µM
CC1(C)[C@@H](O)CC[C@]2(C)[C@H]3C(=O)C=C4[C@@H]5C[C@@](C)(C(=O)OCc6ccc([N+](=O)[O-])cc6)CC[C@]5(C)CC[C@@]4(C)[C@]3(C)CC[C@@H]12		>1330 µM
Cc1cc(NC(=O)c2ccc(F)c(Br)c2)ccc1F		>100 µM
CCOC(=O)c1c(CSc2ccc(F)cc2)nc2c(O)c(CN3CCOCC3)c(Br)cn12	MTT	12.6 µM
CCC(=O)O[C@H]1C[C@@H]2C(=CC[C@@H]3[C@@]2(C)C(=O)C[C@]2(C)C([C@@](C)(O)C(=O)CCC(C)(C)OC(C)=O)[C@H](O)C[C@@]32C)C(C)(C)[C@@H]1OC(=O)CC		>596.4 µM
Cc1ccc(CNc2ccc3nc[nH]c3c2)o1	MTT	>50 µM
CCOC(=O)C1=C(CN2CC(F)(F)[C@@H]3[C@H]2CON3C[C@@H](F)CC(C)(C)C(=O)O)NC(c2nccs2)=N[C@H]1c1cccc(F)c1C	WST / absorbance	50 µM
CC(C)[C@@H](C)/C=C/[C@@H](C)[C@H]1CCC2C3=C[C@@H](O)[C@@]4(O)C[C@@H](O)CC[C@]4(C)C3CC[C@@]21C	MTT	89.6 µM
CCCCC/C=C\CCCCCCCC(O)/C=C/C=C/C(=O)NCC(C)C	MTT	1560 µM
CC(=O)OC(C)(C)CCC(=O)[C@](C)(O)C1[C@H](O)C[C@@]2(C)[C@@H]3CC=C4[C@@H](C[C@H](O)[C@@H](O)C4(C)C)[C@]3(C)C(=O)C[C@]12C		66.2 µM
CC1(C)[C@@H](O)CC[C@]2(C)[C@H]3C(=O)C=C4[C@@H]5C[C@@](C)(C(=O)OCc6ccc(C(F)(F)F)cc6)CC[C@]5(C)CC[C@@]4(C)[C@]3(C)CC[C@@H]12		>1370 µM
Cc1cn([C@H]2O[C@@H](CO)[C@H](O)[C@H]2F)c(=O)[nH]c1=O		≥200 µM
CC(=O)OCCc1c(Cl)nc2ccc(Cl)cc2c1-c1ccccc1Cl		116.4 µM
CC(C)(O)CCC(=O)[C@](C)(O)C1[C@H](O)C[C@@]2(C)[C@@H]3CC=C4[C@@H](C[C@H](O)[C@@H](O)C4(C)C)[C@]3(C)C(=O)C[C@]12C		60.6 µM
CCOCC(=O)O[C@@H](C[C@@H](C)[C@]12CC[C@@]3(C)[C@@]1(C[C@H](OC(=O)COCC)[C@H]1[C@@]4(C)CCC(=O)C(C)(C)[C@@H]4CC[C@@]13C)O2)[C@@H](OC(=O)COCC)C(C)(C)OC(=O)COCC		>1400 µM
CC1(C)[C@@H](O)CC[C@]2(C)[C@H]3CC=C4[C@@H]5C[C@@](C)(C(=O)O)CC[C@]5(C)CC[C@@]4(C)[C@]3(C)CC[C@@H]12		162 µM
CCOC(=O)c1c(CSc2ccccc2)nc2c(O)c(CN3CCCCC3)c(Br)cn12	MTT	14.2 µM
O=c1[nH]c2ccc(Cl)cc2c(-c2ccccc2Cl)c1CCO		387.5 µM
C[C@H](Cn1cnc2c(N)ncnc21)OCP(=O)(O)O	MTT	>1740 µM
CCOC(=O)c1c(CSc2ccc(F)cc2)nc2c(O)c(CN3CCCCC3)c(Br)cn12	MTT	27.8 µM
CCOC(=O)C1=C(CN2CC(F)(F)[C@@H]3[C@H]2CON3C[C@@H](O)[C@H](CC)C(=O)O)NC(c2nccs2)=N[C@H]1c1cccc(F)c1C	WST / absorbance	100 µM
CC(=O)c1c(O)c(C(C)C)cc2c(c1=O)C[C@@]1(O)CCCC(C)(C)C1CC2	MTT	>1210 µM
CCOC(=O)c1c(CSc2cccc(OC)c2)nc2c(O)c(CN3CCOCC3)c(Br)cn12	MTT	17.6 µM
COC(=O)C1=C(CN2CCOC3CN(C(=O)OC(C)(C)C)CC32)NC(c2ncc(F)cc2F)=N[C@H]1c1ccc(F)cc1Cl		7 µM
C[C@H](C[C@H](OC(=O)c1ccc(Br)cc1)[C@@H](OC(=O)c1ccc(Br)cc1)C(C)(C)O)C1=C2C[C@H](OC(=O)c3ccc(Br)cc3)[C@H]3[C@@]4(C)CCC(=O)C(C)(C)[C@@H]4CC[C@]3(C)[C@@]2(C)CC1		650 µM
C[C@H]1OC(=O)[C@@H](O)CC2[C@]3(C)CC[C@@]4(CC(=O)O)C5CC(C)(C)CC[C@]5(C)CC[C@]4(C)C3CC[C@@]21C	MTT	30.4 µM
COC(=O)C1=C(CN2CCN(C(=O)Oc3ccccc3)CC2)NC(c2ncccc2F)=N[C@H]1c1ccc(F)cc1Br		3 µM
C[C@@]12C(=O)N(CCc3ccc(O)cc3)C(=O)[C@]1(C)C1CCC2O1	MTT	0.071 µM
CCC(=O)O[C@@H]1[C@@H](O)C[C@@H]2C(=CC[C@@H]3[C@@]2(C)C(=O)C[C@]2(C)C([C@@](C)(O)C(=O)CCC(C)(C)OC(C)=O)[C@H](O)C[C@@]32C)C1(C)C		100.3 µM
CS(=O)(=O)OCCc1c(OS(C)(=O)=O)nc2ccc(Cl)cc2c1-c1ccccc1Cl		804.1 µM
COc1cccc(/C=C/C(=O)O[C@H]2CC[C@]3(C)[C@H]4CC=C5[C@@H]6C[C@@](C)(C(=O)OCc7ccc(C(F)(F)F)cc7)CC[C@]6(C)CC[C@@]5(C)[C@]4(C)CC[C@H]3C2(C)C)c1		>899 µM
OCCc1c(OCc2c(Cl)cccc2Cl)nc2ccc(Cl)cc2c1-c1ccccc1Cl		38.5 µM
COC(=O)C1=C(CN2CC3CC[C@H](C2)O3)NC(c2ncc(F)cc2F)=N[C@H]1c1ccc(F)cc1Cl		4 µM
CCOC(=O)C1=C(CN2CCC(C)CC2)NC(c2c(F)cc(F)cc2F)=NC1c1ccc(F)cc1Cl	MTT	32.98 µM
COC(=O)C1=C(CN2CC(F)(F)[C@@H]3[C@H]2CON3C[C@H](O)C(C)(C)C(=O)O)NC(c2nccs2)=N[C@H]1c1ccc(F)c(F)c1C	WST / absorbance	100 µM
OCCc1c(Cl)nc2ccc(Cl)cc2c1-c1ccccc1Cl		42.5 µM
CC(C)CCC(=O)O[C@@H](C[C@@H](C)C1=C2C[C@H](OC(=O)CCC(C)C)[C@H]3[C@@]4(C)CCC(=O)C(C)(C)[C@@H]4CC[C@]3(C)[C@@]2(C)CC1)[C@@H](OC(=O)CCC(C)C)C(C)(C)O		>900 µM
COC(=O)c1cc(OC)c2c(c1-c1c(C(=O)O[C@H]3[C@H](F)[C@H](n4ccc(N)nc4=O)O[C@@]3(CO)N=[N+]=[N-])cc(OC)c3c1OCO3)OCO2	MTT	965.4 µM
Nc1cc(F)c(S(=O)(=O)N2CCC(O)CC2)cc1C(=O)Nc1ccc(Cl)c(C(F)F)c1	MTT	30.1 µM
CCOCC(=O)O[C@H]1C[C@H]2[C@]3(C)C(=O)C[C@]4(C)C([C@@](C)(O)C(=O)CCC(C)(C)OC(C)=O)[C@H](OC(=O)COCC)C[C@@]4(C)[C@@H]3C[C@H]3O[C@]32C(C)(C)[C@@H]1OC(=O)COCC		>633.3 µM
CS(=O)(=O)OCCc1c(Cl)nc2ccc(Cl)cc2c1-c1ccccc1Cl		881.7 µM
CC(=O)O[C@H]1C[C@H]2[C@]3(C)C(=O)C[C@]4(C)C([C@@](C)(O)C(=O)CCC(C)(C)OC(C)=O)[C@H](OC(C)=O)C[C@@]4(C)[C@@H]3C[C@@H](O)[C@@]2(OC(=O)c2cccc(Cl)c2)C(C)(C)[C@@H]1OC(C)=O		>1050 µM
OC[C@H]1O[C@@H](OCCc2ccc(O)c(O)c2)[C@H](O)[C@@H](O[C@@H]2OC[C@](O)(CO)[C@H]2O)[C@@H]1O	MTT	1200 µM
CC(C)=CCC[C@]1(C)CC[C@]2(C)[C@H]3CC[C@@]4(C)[C@@H](CC[C@H](O)[C@@H]4C)[C@]3(C)CC[C@@]2(C)C1	sulforhodamine	137.7 µM
CSc1ncc(C(=O)NCCO)c(Nc2ccc3cn[nH]c3c2)n1	MTT	>100 µg/mL
CC[C@]12CCC(C)(C)CC1[C@]1(CC(=O)O)CC[C@@]3(C)C4C[C@H](O)C(=O)O[C@H](C)[C@@]4(C)CCC3[C@@]1(C)CC2	MTT	84.6 µM
CCOC(=O)C1=C(CN2CCOCC2)NC(c2c(F)cc(F)cc2F)=NC1c1ccc(F)cc1Cl	MTT	33.75 µM
COC(=O)C1=C(CN2CCN(c3ncc(F)cn3)CC2)NC(c2ncc(F)cc2F)=N[C@H]1c1ccc(F)cc1Cl		>5 µM

A second listing of 4 rows from above:

compound	method	result
CC(=O)OC(C)(C)CCC(=O)[C@](C)(O)C1[C@H](O)C[C@@]2(C)[C@@H]3CC=C4[C@@H](C[C@H](O)[C@@H](O)C4(C)C)[C@]3(C)C(=O)C[C@]12C		66.2 µM
CCOC(=O)C1=C(CN2CC(F)(F)[C@H]3[C@@H]2CCN3CC[C@@](C)(O)C(=O)O)NC(c2nccs2)=N[C@H]1c1ccc(F)c(F)c1C	WST / absorbance	67.9 µM
Cc1ccc(CNc2ccc3nc[nH]c3c2)o1	MTT	>50 µM
CC(C)[C@@H](C)/C=C/[C@@H](C)[C@H]1CCC2C3=C[C@@H](O)[C@@]4(O)C[C@@H](O)CC[C@]4(C)C3CC[C@@]21C	MTT	89.6 µM